Results taken from article PMC10384427, “Human Post-Translational SUMOylation Modification of SARS-CoV-2 Nucleocapsid Protein Enhances Its Interaction Affinity with Itself and Plays a Critical Role in Its Nuclear Translocation” (2023).

Columns and labels:
[1] = test system: SARS-CoV-2 N protein K347R, not SUMOylated, SARS-CoV-2, P0DTC9 1-419; test: FRET or BRET
[2] = test system: SARS-CoV-2 Nucleocapsid (N) protein, wildtype, SUMO1 modified, SARS-CoV-2 | human, P0DTC9;P63165; test: FRET or BRET

Substance | Kd [1] | Kd [2]
SARS-CoV-2 N protein K347R, not SUMOylated | 1980 nM | 
SARS-CoV-2 Nucleocapsid (N) protein, wildtype, SUMO1 modified |  | 340 nM
